Reference: publication PMC7567097, “A nanoluciferase SARS-CoV-2 for rapid neutralization testing and screening of anti-infective drugs for COVID-19” (Nature Communications, 2020)
Some results come without the dose or concentration used.

Tested on: SARS-CoV-2-Nluc
Type: cell-based

| SMILES | fold difference of EC50 between Vero E6 and A549-hACE2 cells (lower in A549-hACE2) [fold] | fold lower potency against SARS-CoV-2-Nluc than against HRV [fold] |
| --- | --- | --- |
| CCC(CC)COC(=O)[C@H](C)N[P@](=O)(OC[C@H]1O[C@@](C#N)(c2ccc3c(N)ncnn23)[C@H](O)[C@@H]1O)Oc1ccccc1 [Remdesivir] | > 10 |  |
| CCOC(=O)/C=C/[C@H](C[C@@H]1CCNC1=O)NC(=O)[C@@H](CC(=O)[C@@H](NC(=O)c1cc(C)on1)C(C)C)Cc1ccc(F)cc1 [Rupintrivir] |  | 156 |
